The record followed here is the supplement of paper PMC3578754.

Fold change is the IC50 on the isolate divided by the IC50 on a reference virus; 1 = unchanged, higher = more resistant. Changes are given against the subtype B consensus. No active / inactive call. The values were gathered from many studies (numbered anew) with different assays, which the source does not name. Most viruses are clinical isolates; some are laboratory strains or clones with known resistance changes. Isolates with mixed residues are left out; stretches that were not sequenced show no change. Round top values that many isolates share are read here as limits; other very high values and 0.1 may be limits too. The protease changes I3V and N37S, insertions and deletions cannot be read from the source.

Common to all, as to experiment: fold change of IC50 against reference virus; higher = more resistant; Cell-culture drug susceptibility tests of virus bearing the protease of each isolate, gathered from many studies.
Compound in one test: CC(C)(C)NC(=O)[C@@H]1C[C@@H]2CCCC[C@@H]2CN1C[C@@H](O)[C@H](Cc1ccccc1)NC(=O)[C@H](CC(N)=O)NC(=O)c1ccc2ccccc2n1 [saquinavir]
Compound in another test: CC(C)c1nc(CN(C)C(=O)N[C@H](C(=O)N[C@@H](Cc2ccccc2)C[C@H](O)[C@H](Cc2ccccc2)NC(=O)OCc2cncs2)C(C)C)cs1 [ritonavir]
Compound in another test: Cc1cccc(C)c1OCC(=O)N[C@@H](Cc1ccccc1)[C@@H](O)C[C@H](Cc1ccccc1)NC(=O)[C@H](C(C)C)N1CCCNC1=O [lopinavir]
Compound in the next test: Cc1c(O)cccc1C(=O)N[C@@H](CSc1ccccc1)[C@H](O)CN1C[C@H]2CCCC[C@H]2C[C@H]1C(=O)NC(C)(C)C [nelfinavir]
Compound in another test: CC(C)(C)NC(=O)[C@@H]1CN(Cc2cccnc2)CCN1C[C@@H](O)C[C@@H](Cc1ccccc1)C(=O)N[C@H]1c2ccccc2C[C@H]1O [indinavir]

“HIV-1 isolate 794 (protease changes: L10I I15V G16E K20R E35D M36I R41K I54A R57K Q61D A71V I72R V82A L89I L90M Q92K, study 109)”: the “fold change of IC50 against reference virus” value (“fold change of IC50” below) with saquinavir came to 66; in the test with ritonavir, 197; with lopinavir, 108; with nelfinavir it was 136; with indinavir, 139.

Turning to “HIV-1 isolate 99 (protease changes: L10I I15V G16E K20R E35D M36I R41K I54V R57K Q61D A71V I72R V82A L89I L90M Q92K, study 8)”, the “fold change of IC50” value in the test with saquinavir was 52; with ritonavir, 261; in the test with lopinavir, 99; with nelfinavir it was 205; with indinavir, 156.

For the test system “HIV-1 isolate 1090 (protease changes: L10I I15V I54V L63P A71V V82A I84V I85V L90M, study 116)”, the “fold change of IC50” value stood at 14 with saquinavir; 78 with ritonavir; 13 in the test with lopinavir; 7 with nelfinavir; 7.7 with indinavir.

For the test system “HIV-1 isolate 1457 (protease changes: T12S L19I L63P V77I I93L, study 15)”, the “fold change of IC50” value stood at 0.8 with saquinavir; 1.1 with ritonavir; 0.7 with lopinavir; 1.9 with nelfinavir; 1.2 with indinavir.

With “HIV-1 isolate 474 (protease changes: L10F L33F N37D M46I I54V L63P A71V T74P I84V L90M I93L, study 109)”, the “fold change of IC50” value was determined as 96 in the test with saquinavir; 63 with ritonavir; 67 with lopinavir; 101 in the test with nelfinavir; 29 in the test with indinavir.

Regarding “HIV-1 isolate 375 (protease changes: L10I K20I M46I L63Q I64V I72T G73C T74S V77I L90M I93L, study 65)”, the “fold change of IC50” value is 11.8 in the test with saquinavir; 4.1 with ritonavir; 2.7 with lopinavir; 87.2 with nelfinavir; 22.7 with indinavir.

With “HIV-1 isolate 713 (protease changes: L10I K20R M36I M46L I54V Q58E I62V L63P A71V V82A L90M, study 116)”, the “fold change of IC50” value with saquinavir is 7.1; in the test with ritonavir, 79; with lopinavir, 33; with nelfinavir it was 43; with indinavir, 22.

As for “HIV-1 isolate 1168 (protease changes: L10F L19I E21Q L33F M36L N37D R41I M46I I54V I62V L63P I64V I66L C67F H69R I72M V77I V82T N83D L90M Q92K, study 15)”, the “fold change of IC50” value is 84 with saquinavir; 400 with ritonavir; 400 in the test with lopinavir; 175 in the test with nelfinavir; 178 with indinavir.

Take “HIV-1 isolate 1407 (protease changes: T12S L19I L63P V77I I93L, study 15)”: the “fold change of IC50” value with saquinavir was 0.7; with ritonavir, 1.1; with lopinavir, 0.9; in the test with nelfinavir, 1.9; with indinavir, 1.1.

For “HIV-1 isolate 1471 (protease changes: L10I I15V L24I N37D K45V I54V L63P V82A L89M, study 116)”, the “fold change of IC50” value with saquinavir is 5.9; with ritonavir it was 108; with lopinavir, 41; with nelfinavir, 31; in the test with indinavir, 40.

For the test system “HIV-1 isolate 1204 (protease changes: L10F M46I I50V, study 30)”, the “fold change of IC50” value is 1.4 with saquinavir; 5 with ritonavir; 15 with lopinavir; 3.3 with nelfinavir; 1.2 with indinavir.

As for “HIV-1 isolate 1593 (protease changes: L10I T12P I13V I15V K20I E35N M36I R41K I64M H69K L89M, study 114)”, the “fold change of IC50” value with saquinavir is 0.8; with ritonavir, 0.8; with lopinavir, 0.8; in the test with nelfinavir it was 1.1; with indinavir, 0.6.

Turning to “HIV-1 isolate 1425 (protease changes: L10F M46I I54V L63P H69K A71V V82A L90M I93L, study 109)”, the “fold change of IC50” value with saquinavir is 7.4; with ritonavir, 79; with lopinavir it was 51; with nelfinavir, 40; in the test with indinavir it was 29.

Turning to “HIV-1 isolate 522 (protease changes: I15V M36I R41K L63P E65D K70R, study 116)”, the “fold change of IC50” value in the test with saquinavir was found to be 1.1; with ritonavir, 1.4; with lopinavir, 1.1; in the test with nelfinavir it was 1.1; in the test with indinavir, 1.1.

As for “HIV-1 isolate 361 (protease changes: T12P L19I E35D I62V L63P K70N I93L, study 15)”, the “fold change of IC50” value is 0.5 in the test with saquinavir; 0.6 with ritonavir; 0.6 in the test with lopinavir; 1.1 in the test with nelfinavir; 0.8 in the test with indinavir.

Consider “HIV-1 isolate 177 (protease changes: L10I M46I I54V A71V V82A, study 8)”, for which the “fold change of IC50” value was 0.8 in the test with saquinavir; 33.7 in the test with ritonavir; 24.6 with lopinavir; 17.2 with nelfinavir; 6.8 with indinavir.

As for “HIV-1 isolate 581 (protease changes: I15V M36I R41K L63P E65D K70R, study 109)”, the “fold change of IC50” value with saquinavir was 0.6; with ritonavir, 0.7; with lopinavir, 0.6; with nelfinavir it was 0.8; with indinavir, 0.6.

For “HIV-1 isolate 875 (protease changes: L10I I13V K20I E35D M36I R41K H69K V82I L89M, study 114)”, the “fold change of IC50” value in the test with saquinavir came to 1; in the test with ritonavir, 1.7; in the test with lopinavir, 1; with nelfinavir, 1.8; in the test with indinavir, 1.8.

As to “HIV-1 isolate 960 (protease changes: L10F I54L, study 36)”, the “fold change of IC50” value worked out at 0.8 with saquinavir; 0.9 with ritonavir; 1 in the test with lopinavir; 1.6 with nelfinavir; 0.6 in the test with indinavir.

With “HIV-1 isolate 252 (protease changes: E34Q R41K I62V L63P H69Y A71V G73T V82I I84V L90M I93L, study 15)”, the “fold change of IC50” value with saquinavir was 47.7; with ritonavir it was 48.7; with lopinavir, 6.3; with nelfinavir it was 17.6; with indinavir, 7.5.

On to “HIV-1 isolate 1563 (protease changes: I15V I62V L63P I72V, study 15)”, for which the “fold change of IC50” value was 1 with saquinavir; 1.8 with ritonavir; 1.5 with lopinavir; 1.8 with nelfinavir; 1.5 with indinavir.

Regarding “HIV-1 isolate 839 (protease changes: N37E D60E I64V, study 7)”, the “fold change of IC50” value with saquinavir was 1; in the test with ritonavir it was 1.2; with lopinavir it was 1; with nelfinavir, 1.6; with indinavir it was 1.1.

For the test system “HIV-1 isolate 884 (protease changes: T12S I15V L19I M36I R41K L63P H69K L89M I93L, study 114)”, the “fold change of IC50” value amounted to 0.5 with saquinavir; 0.4 with ritonavir; 0.4 in the test with lopinavir; 0.6 in the test with nelfinavir; 0.5 in the test with indinavir.
